Legend:
[1] = biological target: SARS-CoV-2 nsp10-nsp16 complex (Severe acute respiratory syndrome coronavirus 2, UniProt P0DTD1); conditions: read-out: Kd (apparent); FP, 30 nM FAM-RNA, varying nsp10-nsp16; 10 mM Tris pH 7.5, 5 mM DTT, 0.01% Triton X-100, 0.01% BSA
[2] = biological target: nsp16 (2'-O-methyltransferase);nsp10 (SARS-CoV-2;SARS-CoV-2, UniProt P0DTD1;P0DTD1 6799-7096;4254-4392, |); experiment: fluorescence polarization

Molecule	Kd [1] [nM]	Kd [2] [nM]
5′ N7-meGpppACCCCC-FAM 3′	130 ± 2	
ACCCCC (ssRNA, 5' N7-meGppp cap (5'-5' triphosphate; cap G not in strand)) [N7-meGpppACCCCC-FAM]		130 ± 2

Reference: article PMC7803792 (Slas Discovery, 2021)
